Data taken from publication PMC12615485, “New dengue virus inhibitors targeting NS3-NS5 interaction identified by in silico screening” (Frontiers in Microbiology, 2025).

Each compound was assayed on DENV-2 NGC strain (assay: Plaque reduction assay (PRA) in Vero cells). Conditions: best analogues of hit 3; ratio between CC50 and EC50.
Assay type: cell-based
In the case of Cc1ccc(NC(=S)NNC(=O)c2ccccn2)cc1 [Compound 64], the “SI (selectivity index)” value is reported as 19.
CN(C)c1ccc(NC(=S)NNC(=O)c2ccccn2)cc1 [Compound 69] was tested, and the “SI (selectivity index)” value was 6.
With Cc1ccc(NC(=S)NNC(=O)c2ccc(C(C)(C)C)cc2)cc1 [Compound 72] the “SI (selectivity index)” value was 75.
